Anti-infective test results gathered from many reports (values: NIAID ChemDB through PubChem).

Shared fields: tests in culture; agent: Mycobacterium tuberculosis

Neighbouring rows are from separate reports.

compound,dose,strain,mutations,cell line,setting,method,endpoint,result
c1ccc(C(CNCCNCCCN2CCOCC2)c2ccccc2)cc1,-,-,-,-,-,-,MIC,25 µM
O=C(N/N=C/c1ccncc1)c1ccc(F)cc1,-,H37Rv,-,-,-,-,MIC,>6.25 µg/mL
CC(SC(C)C(=O)N/N=C/c1c[nH]c2ccccc12)C(=O)N/N=C/c1c[nH]c2ccccc12,-,H37Rv,-,-,-,BACTEC,MIC,≥12.5 µg/mL
COc1ccc(CSc2ccccn2)cc1,-,H37Rv,-,-,-,-,MIC90,>6.25 µg/mL
NC(=O)c1cnccn1,-,M6733,-,-,-,-,MIC,30 µg/mL
CC(=O)c1c(C)[nH]c(C(=O)N/N=C/c2cccc(Cl)c2)c1C,-,H37Rv,-,-,-,resazurin,MIC,<6.25 µg/mL
COc1c(O)cc2oc3cc(O)c(CCC(C)C)c(O)c3c(=O)c2c1CCC(C)C,-,M6,MDR,-,-,resazurin,MIC,1.56 µg/mL
CC(=O)c1c(C)[nH]c(C(=O)N/N=C/c2ccc(C)cc2)c1C,-,H37Rv,-,-,-,resazurin,MIC,<6.25 µg/mL
c1ccc2c(c1)CC(NCCNC1CCCCCCC1)C2,-,-,-,-,-,-,MIC,25 µM
COc1cccc(Sc2ccncc2)c1,-,H37Ra,-,-,-,-,MIC,>12.8 µg/mL
COCC1OC2OC3C(COC)OC(OC4C(COC)OC(OC5C(COC)OC(OC6C(COC)OC(OC7C(COC)OC(OC8C(COC)OC(OC1C(O)C2O)C(O)C8O)C(O)C7O)C(O)C6O)C(O)C5O)C(O)C4O)C(O)C3O.O=Cc1ccccc1,-,H37Rv,-,-,-,BACTEC,MIC,≥12.5 µg/mL
CC(NNC(=O)c1ccncc1)c1cccc(C(F)(F)F)c1,-,Isoniazid-resistant,-,-,-,-,MIC,>50 µg/mL
CCCCCCCCCN1C(=O)c2ccnnc2Oc2cc(C)ccc21,12.5 µg/mL,H37Rv,-,-,-,BACTEC,inhibition,0%
O=c1nc(SCc2ccccn2)c2[nH]cnc2[nH]1,-,H37Rv,-,-,-,-,MIC90,>6.25 µg/mL
COc1c(OCCO)cc2oc3cc(O)c(CCC(C)C)c(O)c3c(=O)c2c1CCC(C)C,-,H37Ra,-,-,-,resazurin,MIC,1.56 µg/mL
C[C@@H]1[C@@H](NCCNC2CCCCCCC2)C[C@H]2C[C@@H]1C2(C)C,-,-,-,-,-,-,MIC,12.5 µM
COc1ccccc1CCNCCNC(C)Cc1ccc(Cl)cc1,-,-,-,-,-,-,MIC,50 µM
COc1cc2c(c3c1c(=O)c1cccc(F)c1n3C)C=CC(C)(C)O2,12.5 µg/mL,H37Rv,-,-,-,BACTEC,inhibition,20%
CC(C)c1ccc2c(c1)CC[C@H]1[C@](C)(CNCCNCCc3ccc(O)cc3)CCC[C@]21C,-,-,-,-,-,-,MIC,25 µM
O=C(c1ccco1)N1CCCN(C(=O)c2ccco2)C1=S,6.25 µg/mL,H37Rv,-,-,-,resazurin,inhibition,10%
CCCCC(CC)CN1CN(CC(CC)CCCC)CC(C)(NCCNC2CCCCC2C)C1,-,-,-,-,-,-,MIC,25 µM
CCCCCCCN1C(=O)c2cc(Cl)nnc2Oc2ccc3ccccc3c21,12.5 µg/mL,H37Rv,-,-,-,BACTEC,inhibition,32%
NC[C@H]1O[C@H](O[C@H]2[C@H](O)[C@@H](O[C@H]3O[C@H](CO)[C@@H](O)[C@H](N)[C@H]3O)[C@H](N)C[C@@H]2N)[C@H](O)[C@@H](O)[C@@H]1O,-,TN3187 (W1),-,-,-,-,MIC,>256 µg/mL
Cc1ccc(NC(=O)C2C(=O)N(c3ccc(C)c(C)c3)C(=O)C2N=N)cc1C,-,H37Rv,-,-,-,BACTEC,MIC,≥12.5 µg/mL
COc1ccc2c(c1)/C(=N/OC(=O)c1ccc(OC)c([N+](=O)[O-])c1)CCC2,-,Clinical isolate,-,-,-,resazurin,MIC,2 µg/mL
N#C[B][n+]1ccc(C(=O)NNCc2ccccc2)cc1,-,Erdman,-,Macrophages,inside macrophages,colony count,EC90,0.116 µg/mL
c1ccc(C(CCNCCN[C@H]2C[C@@H]3CC[C@H]2C3)c2ccccc2)cc1,-,-,-,-,-,-,MIC,3.13 µM
O=C(N/N=C/c1ccccc1F)c1ccncc1,-,Rifampicin-resistant,-,-,-,-,MBC,0.4 µg/mL
CN=C1NC(=O)CC(C(=O)Nc2ccc3ccccc3c2)S1,-,18b,-,-,-,resazurin,MIC,8 µg/mL
O=c1nc(SCc2ccc(Cl)cc2[N+](=O)[O-])c2[nH]cnc2[nH]1,6.25 µg/mL,H37Rv,-,-,-,-,inhibition,41%
CN1C(=O)C[N+]([O-])=C(c2ccccc2)c2cc(Cl)ccc21,-,H37Rv,-,-,-,BACTEC,MIC bound,>12.5 µg/mL
CC(=O)c1c(OC(=O)c2ccccc2)cc2oc3cc(O)c(CC=C(C)C)c(O)c3c(=O)c2c1CC=C(C)C,-,H37Ra,-,-,-,resazurin,MIC,12.5 µg/mL
CC(C)[C@H]1C(=O)OC[C@@H](NC(=O)c2cnc3ccccc3n2)C(=O)N[C@@H](C)C(=O)N(C)[C@@H]2CSSC[C@H](C(=O)N1C)N(C)C(=O)[C@H](C)NC(=O)[C@H](NC(=O)c1cnc3ccccc3n1)COC(=O)[C@H](C(C)C)N(C)C2=O,-,EMB-R,-,-,-,-,MIC,1.6 µg/mL
CO[C@H]1/C=C/O[C@@]2(C)Oc3c(C)c(O)c4c(O)c(c(/C=N/N5CCN(C)CC5)c(O)c4c3C2=O)NC(=O)/C(C)=C\C=C\[C@H](C)[C@H](O)[C@@H](C)[C@@H](O)[C@@H](C)[C@H](OC(C)=O)[C@@H]1C,-,RifR,-,-,-,resazurin,MIC,50–100 µg/mL
CC(C)c1ccc2c(c1)CC[C@H]1[C@](C)(CNCCNCCO)CCC[C@]21C,-,-,-,-,-,-,MIC,25 µM
CCCCc1c(O)c(N=NC(=O)C[n+]2ccccc2)c2ccccc2c1O,-,H37Rv,-,-,-,BACTEC,MIC,≥12.5 µg/mL
CCCCCCCCCCCNCCNCCCCO,-,-,-,-,-,-,MIC,50 µM
CCOC(=O)Nc1cc2[nH]c(=S)n3c(=S)[nH]c(n1)c23,12.5 µg/mL,H37Rv,-,-,-,-,inhibition,0%
CCOC(=O)C1=C(O)C2(CC(C)=C(C)CS2=O)SC1=Nc1ccccc1,6.25 µg/mL,H37Rv,-,-,-,resazurin,inhibition,56%
CCC(=O)Oc1cc2oc3cc(OC(=O)CC)c(OC)c(CCC(C)C)c3c(=O)c2c(O)c1CCC(C)C,-,H37Ra,-,-,-,resazurin,MIC,1.56 µg/mL
CCOC(=O)Nc1cc(N)c2c(c1)N[C@@H](C)C(c1ccccc1)=N2,-,H37Rv,-,-,-,-,EC50,>12.5 µg/mL
O=C(N/N=C/c1ccc(Br)s1)c1ccc(F)cc1,-,H37Rv,-,-,-,-,EC50,<6.25 µg/mL
OCCNCCNC(=S)NCCNCCO,6.25 µg/mL,H37Rv,-,-,-,-,inhibition,-12%
C/C(=N\NC(=O)c1ccncc1)c1ccccc1F,-,Ethionamide-resistant,-,-,-,-,MIC,>6.25 µg/mL
C[C@H]1COc2c(N3CCN(C)CC3)c(F)cc3c(=O)c(C(=O)O)cn1c23,-,Strain 325,-,-,-,-,MIC,0.25 µg/mL
C/C(=N\NC(=O)c1ccncc1)c1ccc(F)cc1,-,Erdman,-,-,-,-,MIC,0.2 µg/mL
C[C@H]1[C@@H](c2ccccc2)OC(=O)N1C(=O)CNC(=O)OCc1ccccc1,-,H37Rv,-,-,-,BACTEC,MIC bound,>12.5 µg/mL
COC(=O)Nc1cc(NC(O)/C(=C/O)c2ccccc2)c([N+](=O)[O-])c(N)n1,-,H37Rv,-,-,-,-,EC50,>12.5 µg/mL
Cc1ccccc1CN1C2=NCCN2C(=O)C2=C1CCN(S(=O)(=O)c1ccc(Cl)c(S(N)(=O)=O)c1)C2,6.25 µg/mL,H37Rv,-,-,-,-,inhibition,7%
COc1ccccc1CCNCCNC(c1ccccc1)c1ccccc1,-,-,-,-,-,-,MIC,12.5 µM
O=C(NNCc1ccccc1)c1ccncc1,-,H37Rv (rifampin-resistant),-,-,-,-,MIC,1.95 µg/mL
O=C(N/N=C/Cc1ccccc1)c1ccc(F)cc1,6.25 µg/mL,H37Rv,-,-,-,-,inhibition,4%
O=C(N/N=C/c1cccc(C(F)(F)F)c1)c1ccncc1,-,H37Rv,-,-,-,-,MBC,>3.2 µg/mL
CCC1COCC1Cc1cncn1C.ON(O)O,12.5 µg/mL,H37Rv,-,-,-,BACTEC,inhibition,-1%
COc1c(OCc2ccccc2)cc2oc3cc(OCc4ccccc4)c(CCC(C)C)c(O)c3c(=O)c2c1CCC(C)C,-,H37Ra,-,-,-,resazurin,MIC,12.5 µg/mL
CC1CCC(NCCNC[C@@H]2CC[C@H]3C[C@@H]2C3(C)C)CC1,-,-,-,-,-,-,MIC,12.5 µM
COC(=O)Nc1cc(Cl)cc(NC(=O)OC)n1,-,H37Rv,-,-,-,-,EC50,>12.5 µg/mL
Nc1ccc(S(=O)(=O)Nc2cnccn2)cc1,-,H37Rv,-,-,-,BACTEC,MIC bound,>128 µg/mL
CCCCCN1C(=O)c2cc(Cl)nnc2Oc2cc(C)ccc21,-,H37Rv,-,-,-,BACTEC,EC50,<12.5 µg/mL
CCOC(=O)Nc1cc(NC(C)[C@H](C)c2ccccc2)c(N)c(N)n1,12.5 µg/mL,H37Rv,-,-,-,-,inhibition,56%
C=C1C(=O)O[C@@H]2C[C@@]3(C)C=CC(=O)C(=C)[C@@H]3C[C@H]12,-,TAC-R,-,-,-,-,MIC,12.5 µg/mL
NNC(=O)c1ccncc1,-,M6,MDR,-,-,resazurin,MIC,2 µg/mL
O=C(N/N=C/c1cccs1)c1ccccc1,-,H37Rv,-,-,-,-,MIC,>6.25 µg/mL
Cc1ccccc1CSc1ncccn1,-,H37Rv,-,-,-,-,MIC90,>6.25 µg/mL
CCCCCCCCCCCCCCCCNC(=S)N=Nc1cc(C(C)C)c(NNC(=S)NCCCCCCCCCCCCCCCC)cc1C,12.5 µg/mL,H37Rv,-,-,-,BACTEC,inhibition,3%
CO[C@H]1/C=C/O[C@@]2(C)Oc3c(C)c(O)c4c(=O)c(c5oc6cc(N7CCN(CC(C)C)CC7)cc(=O)c6nc5c4c3=C2O)NC(=O)/C(C)=C\C=C\[C@H](C)[C@H](O)[C@@H](C)[C@@H](O)[C@@H](C)[C@H](OC(C)=O)[C@@H]1C,-,2218 (MDR),-,-,-,-,MIC,0.125 µg/mL
NC(=S)N/N=C/c1ccc2oc3ccccc3c2c1,6.25 µg/mL,H37Rv,-,-,-,BACTEC,inhibition,99%
CC(NNC(=O)c1ccncc1)c1ccc(Cl)c(Cl)c1,-,H37Rv (thiacetazone-resistant),-,-,-,-,MIC,>31.25 µg/mL
CCc1ccc([C@H]2C[C@@H](C(F)(F)F)n3ncc(C(=O)NCc4ccc5c(c4)OCO5)c3N2)cc1,-,H37Rv,MmpL3: Phe644Cys,-,-,fluorescence,fold resistance,22.5
C=CCOc1cc2oc3cc(O)c(CCC(C)C)c(O)c3c(=O)c2c(CCC(C)C)c1OC,-,M27,MDR,-,-,resazurin,MIC,3.12 µg/mL
N#C[B][n+]1ccc(C(=O)NNCc2cccc(C(F)(F)F)c2)cc1,-,H37Rv,-,-,-,-,MIC,0.8 µg/mL
CC(=O)N1N=C2C3CCN(CC3)C2C1c1cccc2ccccc12,-,Clinical isolate,-,-,-,resazurin,MIC,16 µg/mL
C/C(CC(=O)Nc1ccc(Cl)cc1)=N\NC(=O)C[n+]1ccccc1.[Cl-],12.5 µg/mL,H37Rv,-,-,-,BACTEC,inhibition,21%
CC(C)=CCC/C(C)=C/CNCCNCC(C)c1ccccc1,-,-,-,-,-,-,MIC,50 µM
O=c1[nH]c2c([N+](=O)[O-])cccc2c(O)c1N=Nc1cccc([N+](=O)[O-])c1,6.25 µg/mL,H37Rv,-,-,-,resazurin,inhibition,60%
CC(C)CCN1C(=O)c2cc(Cl)nnc2Oc2ccc(Cl)cc21,-,H37Rv,-,-,-,BACTEC,EC50,>12.5 µg/mL
Cc1ccccc1N=Nc1c(O)c2cc(-c3ccccc3)ccc2oc1=O,6.25 µg/mL,H37Rv,-,-,-,resazurin,inhibition,17%
CC(=O)NC[C@H]1CN(c2ccc(N3CCOCC3)c(F)c2)C(=O)O1,-,Strain 35,-,-,-,-,MIC,>16 µg/mL
Cc1cccc(NC(=O)c2cc3c(oc2=O)CC(C)(C)CC3=O)c1,-,Clinical isolate,-,-,-,resazurin,MIC,8 µg/mL
CCCOc1cc2oc3cc(O)c(CCC(C)C)c(O)c3c(=O)c2c(CCC(C)C)c1OC,-,M27,MDR,-,-,resazurin,MIC,3.12 µg/mL
C[C@@H]1CN(c2ccccc2)C[C@H](C)OS(=O)O1,12.5 µg/mL,H37Rv,-,-,-,BACTEC,inhibition,2%
C[C@@H]1[C@H]2C[C@@H](C[C@H]1NCCN[C@@H](C)C1CCCCC1)C2(C)C,-,-,-,-,-,-,MIC,25 µM
Fc1ccc(Cl)c(-c2noc(-c3ccc4nncn4c3)n2)c1,-,18b,-,-,-,resazurin,MIC,8 µg/mL
COc1ccc(OC)c(Sc2ccncc2)c1,-,H37Ra,-,-,-,-,MIC,>12.8 µg/mL
O=C1c2ccccc2C(=O)c2cc3nc4c5ccccc5c5ccccc5c4nc3cc21,12.5 µg/mL,H37Rv,-,-,-,BACTEC,inhibition,-16%
Clc1ccc(N2CCN(c3ccccc3Cl)CC2)nn1,-,18b,-,-,-,resazurin,MIC,16 µg/mL

For reference, 7 entries again:

compound	dose	strain	mutations	cell line	setting	method	endpoint	result
CC(NNC(=O)c1ccncc1)c1cccc(C(F)(F)F)c1	-	Isoniazid-resistant	-	-	-	-	MIC	>50 µg/mL
CO[C@H]1/C=C/O[C@@]2(C)Oc3c(C)c(O)c4c(O)c(c(/C=N/N5CCN(C)CC5)c(O)c4c3C2=O)NC(=O)/C(C)=C\C=C\[C@H](C)[C@H](O)[C@@H](C)[C@@H](O)[C@@H](C)[C@H](OC(C)=O)[C@@H]1C	-	RifR	-	-	-	resazurin	MIC	50–100 µg/mL
OCCNCCNC(=S)NCCNCCO	6.25 µg/mL	H37Rv	-	-	-	-	inhibition	-12%
O=C(N/N=C/c1cccc(C(F)(F)F)c1)c1ccncc1	-	H37Rv	-	-	-	-	MBC	>3.2 µg/mL
COc1ccccc1CCNCCNC(c1ccccc1)c1ccccc1	-	-	-	-	-	-	MIC	12.5 µM
Cc1ccccc1N=Nc1c(O)c2cc(-c3ccccc3)ccc2oc1=O	6.25 µg/mL	H37Rv	-	-	-	resazurin	inhibition	17%
COc1ccc(CSc2ccccn2)cc1	-	H37Rv	-	-	-	-	MIC90	>6.25 µg/mL

MIC bound comes from a single tested concentration. Percent inhibition refers to the dose given; in toxicity tests it is the harm to the cells. An empty or dashed field is not shown. A number after MIC or MFC names an inhibition level or a share of isolates. Fold resistance has wild type as its base. ECn: concentration that inhibits the pathogen or its effect by n%. a–b is a range or a potency band.